B1: BD55-927 (protein)
chain 1: QVQLQQSGPGLVKPSQTLSLTCAISGDSVSSNSAAWNWIRQSPSRGLEWLGRTYYRSKWYNDYAVSVKSRITLNPDTSKNQFSLQLSSVTPEDTAVYYCAREGELPWFGEGAFDVWGLGTMITVSS
chain 2: EIVLTQSPGTLSLSPGERATLSCRASHSVSTSSLAWYQQKPGQAPRLLIYDASSRATGIPDRFSGSGSGTDFTLTISRLEPEDFAVYYCQQYGGSPYTFGQGTKLEIK
B2: BD55-918 (protein)
chain 1: QVQLVESGGGVVQHGRSLRLSCAASGFTFNDYAMYWVRQAPGKGLEWVAVISFDGSTRYYTDSVKGRLTISRDNSKNTLYLQMNSLRAEDTAVYYCARDLLRYFDWLYGMDVWGQGTTVTVSS
chain 2: QSALTQPRSVSGSPGQSVTISCTGTSSDVGDYDYVSWYQQHPGKAPKLIIYDVSKRPSGVPDRFSGSKSGNTASLTISGLQAEDEADYYCYSYAGSYTLGVFGGGTKLPVL
B3: BD55-867 (protein)
chain 1: QVQLVQSGAEVKKPGASVRVSCKASGYTFTTYGISWVRQAPGQGLEWMGWISAYNGYTNYAQKLQGRVTMTTDTSTSTAYMELRSLRSDDTAVYYCARDLKQQLVYNWFDPWGQGTLVTVSS
chain 2: SYELTQPPSVSVSPGQTARITCSGDALPKQYAYWYQQKPGQAPVLVIYKDSERPSGIPERFSGSSSGTTVTLTISGVQAEDEADYYCQSADSSGTSPVVFGGGTKLTVL
B4: BD55-917 (protein)
chain 1: QVQLVQSGAEVRKPGSSVTVACKSSEDIFNTYAFGWVRQAPGQGPEWMGRIIPRLNSISSAQKFRGRVSITADTSTTTVYLELISLRYEDTAVYYCARGRGGGWSEFDDWGRGTLVTVSS
chain 2: DNQMTQSPTSLSASVGDRVTIACRASQSVNTFLNWYQQPPGKPPKLLISAASRLENGVPSRFSGSGSGTDFTLTITNLQPEDFATYYCQQSYFAPFNFGPGTKVDIK
B5: BD55-878 (protein)
chain 1: QLQLQESGPGLVKPSETLSLTCTVSGGSISSRCSYWGWIRQPPGKGLEWIGSMYYSGATYYNPSLKSRVTISVDTSNNQFSLKLSSVTAADTALYYCAREEGHCSSWGGVYFDNWGQGTLVTVSS
chain 2: QSVLTQPPSVSGVPGQRVTISCTGSSSNIGAGYDVHWYQHPPGTAPKLLIYGNNNRPSGVPDRFSGSKSGASASLAITGLQAEDEADYYCQSYDTSLTARVFGGGTRLTVL
B6: BD55-903 (protein)
chain 1: EVQLVESGGGLVQPGGSLRLSCAASGLIVSSNYMSWVRQAPGKGLEWVSDIYSGGSTFYADSVKGRFTVSRNNSKNTLYLQMNSLRVEDTAVYYCARRYGDYHFDYWGQGTLVTVSS
chain 2: DIQMTQSPSTLSASVGDRVTITCRASQGISRWLAWYQQKPGKAPKLLIYETSSLESGVPSRFSGSGSGTEFTLTISSLQPDDFATYYCQQRDTFGQGTKLEIK
B7: BD55-888 (protein)
chain 1: QVQLVESGGGVVQPGRSLRLSCAASGFTFSSYAMHWLRQAPGKGLEWVAVISYDGSYNYYADSVKDRFTISRDNSKNTLYLQMNSLRAEDTAVYYCAREGVVATICFDYWGQGTLVTVSS
chain 2: DIQMTQSPSSLSASVGDRVTITCRASQSISSYLNWYQLKPGKAPKLLIYAASSLQSGVPSRFSGSGSGTDFTLTISSLQPEDFATYYCQQSYTTFMYTFGQGTKLEIK
B8: BD55-905 (protein)
chain 1: QVQLVESGGGVVQPGRSLRLSCAASGFSFSIYGMHWVRQAPGKGLEWVAVISYDGSSKYYGDSVKGRFTISRDNSKNTLYLQMNSLSADDTAIYYCAKTGYYFDSGAYYYWFDPWGQGTLVTVSS
chain 2: EIVLTQSPGTLSLSPGERATLSCRASQSVSSNYLAWYQQKPGQAPRLLIYGASSRATGIPDRFSGSGSGTHFTLTITRLEPEDFAVYYCQHYGSSPPFTFGPGTKVDIK
B9: BD55-892 (protein)
chain 1: QVQLVESGGGLVKPGGSLRLSCAASGFAFSDYYMSWVRQAPGKGLEWISYLSPSGNTKYYADSVKGRFSISRDNANNSVDLQMNSLRAEDTAMYYCVRDTTVEDIAAGRPRFVYWGQGTLVTVSS
chain 2: DIQMTQSPSSLSASVGDRVTITCQASQDINNYLNWYQQKPGKAPNLLIYDASNLETGVPSRFSGSGSGTYFSFTISSLQPEDIGTYYCQQYDNLPLTFGGGTKVEIK
B10: BD55-898 (protein)
chain 1: VQLQESGPGLVKPSQTLSLTCTVSGGSISNDEHFWNWIRQHPRKGLEWIGYIYHSGSTSYNPSLQSRVTLSIDTSKNQFSLRLRSVTAADTAVYYCARGTEYCSGRNCFGEGWFDPWGQGSLVTVSS
chain 2: SYELTQPPSVSVSPGQTANITCSGDKLGNRYASWYQQRPGRSPVVVIYEDNKRPSGIPERFSGSTSGNTATLTISGTQAMDEADYYCQAWDSDAVVFGGGTKLAVL
B11: BD55-887 (protein)
chain 1: QVQLVQSGAEMKKPGSSVKVSCKASGGTFSSYVISWVRQAPGQGLEWMGRIIPALGIPNYAQNFQGRVTITADKSTSTAYMELSSLRSEDTAVYYCARDRGMRDNWFDPWGQGTLVTVSS
chain 2: QSVLTQPPSVSGAPGQRVTISCTGSSSNIGAGYDVHWYQQLPGTAPKLLIYANNNRPSGVPDRFSGSKSDTSASLAITGLQAEDEADYYCQSYDSSLSGEVFGTGTKVTVL
B12: BD55-874 (protein)
chain 1: QVQLVQSGAEVKKPGASVKVSCKASGYIFTAYFILWVRQAPGHGLEWVGWINPNSGSTYYAQKFQGRITLTRDTSISTAYMDLSRLTSDDTAVYYCAREKQLDHYGMDVWGRGTTVTVSS
chain 2: SYELTQPPSVSVSPGQTVSITCSGDKLGFKYVCWYQQKPGQSPVLVIYQDTKRPSGIPERFSGSNSGNTATLTISGTQSMDEADYYCQAWDTSTGVFGGGTKLTVL

The source of these data is the supplement of paper PMC9931576.

Human monoclonal antibodies against the spike receptor-binding domain (heavy:light variable regions). IC50 against pseudoviruses bearing the spike of naturally observed variants; lower = stronger; >10 µg/ml means not reached at the top dose. No active / inactive call. The stated detection limit is 0.0005 µg/ml; values near or below 0.001 µg/ml lie at the floor of the assay.

The target in one test is SARS-CoV-2 Omicron BA.1 spike pseudovirus. Nature of the test: pseudovirus neutralization IC50; higher = weaker neutralization. The method, then:
(§1)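 Single-round VSV luciferase pseudovirus mixed with antibody dilutions for 1 h and put on Huh-7 cells for about a day; IC50 from the dose curve.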
For B1, the “pseudovirus neutralization IC50” value worked out at 8.36 µg/mL.

With B2, the “pseudovirus neutralization IC50” value was above 10 µg/mL.

As for B3, the “pseudovirus neutralization IC50” value is above 10 µg/mL.

As for B4, the “pseudovirus neutralization IC50” value is above 10 µg/mL.

For B5, the “pseudovirus neutralization IC50” value is above 10 µg/mL.

Turning to B6, the “pseudovirus neutralization IC50” value is above 10 µg/mL.

Turning to B7, the “pseudovirus neutralization IC50” value is above 10 µg/mL.

B8: the “pseudovirus neutralization IC50” value is above 10 µg/mL.

For B9, the “pseudovirus neutralization IC50” value is 0.319 µg/mL.

For B10, the “pseudovirus neutralization IC50” value was above 10 µg/mL.

With B11, the “pseudovirus neutralization IC50” value was found to be 0.447 µg/mL.

B12: the “pseudovirus neutralization IC50” value is above 10 µg/mL.

The target of the next test is SARS-CoV-2 Omicron BA.2 spike pseudovirus. Described as above. The protocol: as §1
Turning to B1, the “pseudovirus neutralization IC50” value is above 10 µg/mL.

Consider B2, for which the “pseudovirus neutralization IC50” value is above 10 µg/mL.

As to B3, the “pseudovirus neutralization IC50” value is above 10 µg/mL.

B4: the “pseudovirus neutralization IC50” value is above 10 µg/mL.

Regarding B5, the “pseudovirus neutralization IC50” value was above 10 µg/mL.

For the molecule B6, the “pseudovirus neutralization IC50” value is above 10 µg/mL.

As to B7, the “pseudovirus neutralization IC50” value was above 10 µg/mL.

With B8, the “pseudovirus neutralization IC50” value is above 10 µg/mL.

For the molecule B9, the “pseudovirus neutralization IC50” value turned out to be 0.489 µg/mL.

Regarding B10, the “pseudovirus neutralization IC50” value is above 10 µg/mL.

Regarding B11, the “pseudovirus neutralization IC50” value was determined as 0.411 µg/mL.

As for B12, the “pseudovirus neutralization IC50” value was above 10 µg/mL.

The target of a further test is SARS-CoV-2 Omicron BA.2.75 spike pseudovirus. Described as above. The protocol:
as §1
With B1, the “pseudovirus neutralization IC50” value is above 10 µg/mL.

Take B2: the “pseudovirus neutralization IC50” value was above 10 µg/mL.

For B3, the “pseudovirus neutralization IC50” value is above 10 µg/mL.

Take B4: the “pseudovirus neutralization IC50” value is above 10 µg/mL.

For the molecule B5, the “pseudovirus neutralization IC50” value was above 10 µg/mL.

In the case of B6, the “pseudovirus neutralization IC50” value was above 10 µg/mL.

B7: the “pseudovirus neutralization IC50” value was above 10 µg/mL.

In the case of B8, the “pseudovirus neutralization IC50” value was above 10 µg/mL.

B9: the “pseudovirus neutralization IC50” value was determined as 0.412 µg/mL.

For B10, the “pseudovirus neutralization IC50” value was above 10 µg/mL.

B11: the “pseudovirus neutralization IC50” value worked out at 0.21 µg/mL.

Regarding B12, the “pseudovirus neutralization IC50” value is above 10 µg/mL.

The next test concerns the target SARS-CoV-2 Omicron BA.5 spike pseudovirus. Described as above. The protocol: as §1
Consider B1, for which the “pseudovirus neutralization IC50” value was above 10 µg/mL.

For B2, the “pseudovirus neutralization IC50” value is above 10 µg/mL.

In the case of B3, the “pseudovirus neutralization IC50” value is above 10 µg/mL.

Regarding B4, the “pseudovirus neutralization IC50” value is above 10 µg/mL.

As to B5, the “pseudovirus neutralization IC50” value is above 10 µg/mL.

Turning to B6, the “pseudovirus neutralization IC50” value is 0.636 µg/mL.

In the case of B7, the “pseudovirus neutralization IC50” value was above 10 µg/mL.

In the case of B8, the “pseudovirus neutralization IC50” value was above 10 µg/mL.

B9: the “pseudovirus neutralization IC50” value was above 10 µg/mL.

Consider B10, for which the “pseudovirus neutralization IC50” value was above 10 µg/mL.

Consider B11, for which the “pseudovirus neutralization IC50” value is above 10 µg/mL.

Take B12: the “pseudovirus neutralization IC50” value was above 10 µg/mL.

The next test addresses SARS-CoV-2 Omicron BQ.1.1 spike pseudovirus. The test is described as above. The method, then:
as §1
As to B1, the “pseudovirus neutralization IC50” value was above 10 µg/mL.

As to B2, the “pseudovirus neutralization IC50” value was above 10 µg/mL.

As for B3, the “pseudovirus neutralization IC50” value is above 10 µg/mL.

Take B4: the “pseudovirus neutralization IC50” value is above 10 µg/mL.

Turning to B5, the “pseudovirus neutralization IC50” value is above 10 µg/mL.

Turning to B6, the “pseudovirus neutralization IC50” value is above 10 µg/mL.

In the case of B7, the “pseudovirus neutralization IC50” value was above 10 µg/mL.

B8: the “pseudovirus neutralization IC50” value is above 10 µg/mL.

Consider B9, for which the “pseudovirus neutralization IC50” value was above 10 µg/mL.

For B10, the “pseudovirus neutralization IC50” value is above 10 µg/mL.

On to B11, for which the “pseudovirus neutralization IC50” value was above 10 µg/mL.

Take B12: the “pseudovirus neutralization IC50” value was above 10 µg/mL.

A further test has as its target SARS-CoV-2 Omicron XBB spike pseudovirus. The test is described as above. The method, then:
as §1
Take B1: the “pseudovirus neutralization IC50” value was above 10 µg/mL.

On to B2, for which the “pseudovirus neutralization IC50” value was above 10 µg/mL.

B3: the “pseudovirus neutralization IC50” value is above 10 µg/mL.

As to B4, the “pseudovirus neutralization IC50” value is above 10 µg/mL.

B5: the “pseudovirus neutralization IC50” value was above 10 µg/mL.

B6: the “pseudovirus neutralization IC50” value was above 10 µg/mL.

Turning to B7, the “pseudovirus neutralization IC50” value is above 10 µg/mL.

As to B8, the “pseudovirus neutralization IC50” value was above 10 µg/mL.

Take B9: the “pseudovirus neutralization IC50” value was above 10 µg/mL.

With B10, the “pseudovirus neutralization IC50” value is above 10 µg/mL.

Take B11: the “pseudovirus neutralization IC50” value was above 10 µg/mL.

In the case of B12, the “pseudovirus neutralization IC50” value is above 10 µg/mL.

The target of a further test is SARS-CoV-2 early D614G spike pseudovirus. Described as above. The protocol: as §1
B1: the “pseudovirus neutralization IC50” value was determined as 1.24 µg/mL.

Turning to B2, the “pseudovirus neutralization IC50” value is above 10 µg/mL.

Regarding B3, the “pseudovirus neutralization IC50” value is above 10 µg/mL.

In the case of B4, the “pseudovirus neutralization IC50” value was 0.0793 µg/mL.

With B5, the “pseudovirus neutralization IC50” value is above 10 µg/mL.

For B6, the “pseudovirus neutralization IC50” value is 0.0137 µg/mL.

Turning to B7, the “pseudovirus neutralization IC50” value was above 10 µg/mL.

With B8, the “pseudovirus neutralization IC50” value is above 10 µg/mL.

For B9, the “pseudovirus neutralization IC50” value stood at 0.0437 µg/mL.

As for B10, the “pseudovirus neutralization IC50” value was above 10 µg/mL.

B11: the “pseudovirus neutralization IC50” value was 0.22 µg/mL.

For B12, the “pseudovirus neutralization IC50” value was above 10 µg/mL.
